Pooled drug test results. Numbers come from NIAID ChemDB, via PubChem.

Shared fields: tests in culture; species: Toxoplasma gondii; cells: HFF; measure: EC50

Conditions beyond the fields shown may differ between rows. An empty or dashed field is not shown. ECn: concentration that inhibits the pathogen or its effect by n%.

NC(=O)N1c2ccccc2C=Cc2ccccc21 ; value: 72 µg/mL
Oc1cccc2c1[nH]c1c(C3=C[C@]4(O)C/C=C/CCCCCN5CC[C@@H]3[C@]3(C[C@@H]6/C=C\CCCCN6C34)C5)nccc12 ; value: <1 µM
CO[C@H]1O[C@@H]2O[C@@]3(C)CC[C@H]4[C@H](C)CC[C@@H]([C@H]1C)[C@@]24OO3 ; value: 0.2 µg/mL
O=C1CCCN2C(CC1)C[C@@]13CN4CCCC/C=C/CC[C@@](O)(C=C(c5nccc6c5[nH]c5c(O)cccc56)[C@H]1CC4)[C@@H]23 ; value: >10 µM
CCOC(=O)C1C(c2ccc(Cl)cc2)CC(c2ccccc2)=CC12NCCN2 ; strain: RH ; value: 0.0097 µM
O=C1C(c2c(O)[nH]c3ccc(F)cc23)=Nc2ccccc21 ; strain: ATCC 50839 ; value: >320 µg/mL
CCOC(=O)C1C(c2ccc(C)cc2)CC(c2ccc(Cl)cc2)=CC12NCCN2 ; strain: RH ; value: 0.0097 µM
O=Nc1c(-c2c(O)[nH]c3ccc(S(=O)(=O)O)cc23)[nH]c2ccccc12 ; strain: ATCC 50839 ; value: >320 µg/mL
C/C(=C\Cc1ccccc1)CCC[C@H](C)C[C@]1(C)C[C@@]2(C)OC(=O)C[C@H]2OO1 ; strain: RH ; value: <10 µM
O=C1c2cc(I)ccc2-n2c1nc1ccccc1c2=O ; strain: ATCC 50839 ; value: 0.0003 µg/mL
CC1=C(C(=O)NCc2ccc(F)c(F)c2)OC2OC3(C)CC[C@H]4[C@H](C)CC[C@@H]1[C@@]24OO3 ; strain: 2F ; method: β-galactosidase ; value: 0.34 µM
O=C1C(c2c(O)[nH]c3cc(Cl)ccc23)=Nc2ccccc21 ; strain: ATCC 50839 ; value: >320 µg/mL
CCOC(=O)C1C(c2ccccc2)CC(c2ccc(Cl)cc2)=CC12NCCN2 ; strain: RH ; value: 0.0097 µM
CC1=C(C(=O)NCc2cc(Br)cc(Br)c2)OC2OC3(C)CC[C@H]4[C@H](C)CC[C@@H]1[C@@]24OO3 ; strain: 2F ; method: β-galactosidase ; value: 0.36 µM
CCOC(=O)C1C(c2ccccc2)CC(c2ccc(OC)cc2)=CC12NCCN2 ; strain: RH ; value: 0.0097 µM
C[C@H]1[C@@H](CCCC(=O)c2ccccc2)O[C@@H]2OC3(C)CC[C@H]4[C@H](C)CC[C@@H]1[C@@]24OO3 ; value: 0.6 µg/mL
COC(=O)C1=C(C)[C@@H]2CC[C@@H](C)[C@@H]3CC[C@]4(C)OO[C@@]23[C@H](O1)O4 ; method: β-galactosidase ; value: 2.9 µM
CC1=C(C(=O)NCc2ccc(C)cc2)OC2OC3(C)CC[C@H]4[C@H](C)CC[C@@H]1[C@@]24OO3 ; strain: 2F ; method: β-galactosidase ; value: 0.47 µM
CC(C)=CCC[C@@H](C)CCCC[C@H]1O[C@@H]2OC3(C)CC[C@H]4[C@H](C)CC[C@@H]([C@H]1C)[C@@]24OO3 ; value: 2.7 µg/mL
CN(C)CCCN1c2ccccc2Sc2ccc(Cl)cc21 ; value: 2.6 µg/mL
CC(=O)O/N=C1/C(c2c(O)[nH]c3ccccc23)=Nc2ccccc21 ; strain: ATCC 50839 ; value: 0.07 µg/mL
CC[C@@]1(C)NC(=O)[C@H](CCCCCC(=O)[C@H](C)O[Si](C)(C)C(C)(C)C)NC(=O)[C@H]2C[C@H](C)CN2C(=O)C(Cc2ccccc2)NC1=O ; strain: RH ; value: >0.09 µM
Cc1nc2n(c(=O)c1CCN1CCC(c3noc4cc(F)ccc34)CC1)CCCC2 ; value: 74 µg/mL
O=Nc1c(-c2c(O)[nH]c3ccc(F)cc23)[nH]c2ccccc12 ; strain: ATCC 50839 ; value: 0.2 µg/mL
CC[C@H]1OC(=O)[C@H](C)C(=O)[C@H](C)[C@@H](O[C@@H]2O[C@H](C)C[C@H](N(C)C)[C@H]2O)[C@](C)(OC)C[C@@H](C)C(=O)[C@H](C)[C@H]2N(NCCCc3ccnc4ccccc34)C(=O)O[C@]12C ; strain: RH ; value: ≤0.05 µg/mL
O=Nc1c(-c2c(O)[nH]c3ccc(Br)cc23)[nH]c2ccccc12 ; strain: ATCC 50839 ; value: 0.6 µg/mL
CC1=C(c2nc3ccccc3s2)O[C@@H]2O[C@]3(C)CC[C@H]4[C@H](C)CC[C@@H]1[C@@]24OO3 ; method: β-galactosidase ; value: 1 µM

The first 2 rows once more:

| SMILES | strain | method | value |
|---|---|---|---|
| NC(=O)N1c2ccccc2C=Cc2ccccc21 |  |  | 72 µg/mL |
| Oc1cccc2c1[nH]c1c(C3=C[C@]4(O)C/C=C/CCCCCN5CC[C@@H]3[C@]3(C[C@@H]6/C=C\CCCCN6C34)C5)nccc12 |  |  | <1 µM |